Reference: PubChem BioAssay AID540256 (National Center for Advancing Translational Sciences (NCATS), 2011)
The entries are a selection whose mix differs from that of the whole data set. Results filed as inconclusive are left out. The source made the active and inactive calls. Calls come from the whole dose curve; tested in HEK293 cells.

Experiment: qHTS for Inhibitors of binding or entry into cells for Lassa Virus; note: nearly all actives have a fitted effect of over 50% in size
Conditions: Lassa virus pseudotype entry inhibition, cell reporter
Potency is the fitted concentration of half-maximal effect.

SMILES | Potency
Cc1cc(N(CCCl)CCCl)ccc1C=O | active: 282 nM
